# PubChem BioAssay AID1259414 – Drosophila RNAi Screening Center | 2018
# Screen: 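Host factors increasing or decreasing Wolbachia levels in cultured fly cells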 (primary screen)
# Cells: Drosophila JW18 cells infected with Wolbachia
# Reagents: long dsRNA against Drosophila genes, 0.25 µg dsRNA per well of a 384-well plate
# Duration: 5 days
# Conditions: cells persistently infected with Wolbachia before knock-down; no added drug
# Measurement: 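Automated imaging of bacterial rRNA staining divided by host cell count, reported as plate-normalised robust z-score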
# Reading the numbers: Wolbachia per cell robust z: higher = more Wolbachia per host cell than the plate typical
# Call rule: 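Hit when robust z is 1.5 or more, or -1.5 or less, in at least two of three replicates; excludes dsRNAs with several or no targets, genes not expressed in JW18 and well A1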
# In all, the deposit lists about 24,000 reagents; this is a random part of those with a known target gene and a result. Of all reagents, about 1,210 (5%) got an active call. 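Inactive calls also include excluded dsRNAs with several or no targets, genes unexpressed in JW18, and well A1, regardless of score.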 The numbers tell different reagents against one gene apart. No sequences are given here.
target,reagent,"Wolbachia per cell robust z, rep 1","Wolbachia per cell robust z, rep 2","Wolbachia per cell robust z, rep 3",Call
CG18449,1,-2.96,1.12,0.613,inactive
Dscam2 (Down syndrome cell adhesion molecule 2),1,-1.06,0.0653,0.433,inactive
Dscam2 (Down syndrome cell adhesion molecule 2),2,-5.37,1.76,1.28,inactive
Dscam2 (Down syndrome cell adhesion molecule 2),3,-3.3,0.248,0.0325,inactive
Dscam2 (Down syndrome cell adhesion molecule 2),4,0.358,1.07,0.475,inactive
Dscam2 (Down syndrome cell adhesion molecule 2),5,-1.21,0.0386,-0.745,inactive
Dscam2 (Down syndrome cell adhesion molecule 2),6,0.684,0.0221,0.191,inactive
CG7715,1,-0.582,-1.74,0.453,inactive
Acsx4 (Acyl-CoA synthetase X4),1,0.57,-5.76,0.453,inactive
Acsx4 (Acyl-CoA synthetase X4),2,0.217,-7.89,0.0668,inactive
Cand1 (Cullin-associated and neddylation-dissociated 1),1,-1.53,-0.653,-0.0687,inactive
Vha100-4 (Vacuolar H[+] ATPase 100kD subunit 4),1,0.765,0.372,0.4,inactive
Vha100-4 (Vacuolar H[+] ATPase 100kD subunit 4),2,-0.785,-0.274,-1.75,inactive
CG31106,1,0.00663,0.113,-0.99,inactive
CG8726,1,0.0587,0.533,1.03,inactive
CG8726,2,0.872,-0.00229,0.459,inactive
Prp3 (Precursor RNA processing 3),1,0.642,1.17,-0.125,inactive
CG5439,1,-1.9,-0.991,-0.169,inactive
CG5439,2,-0.526,-0.271,0.584,inactive
CG13481,1,1.07,-0.283,0.183,inactive
CG13481,2,0.912,0.384,-0.0223,inactive
ringer (ringmaker),1,-0.894,0.77,0.767,inactive
ringer (ringmaker),2,-0.102,0.425,1.46,inactive
ringer (ringmaker),3,-0.321,0.00193,-0.408,inactive
CG7333,1,-1.26,-1.82,0.804,inactive
CG31345,1,-0.339,0.479,0.313,inactive
CG31345,2,-1.05,-0.0857,-0.434,inactive
Or43a (Odorant receptor 43a),1,0.432,0.287,0.179,inactive
Nup133 (Nucleoporin 133kD),1,0.944,0.195,-0.712,inactive
CG8031,1,-0.192,0.106,0.0343,inactive
CG13250,1,0.0575,-0.99,0.619,inactive
CG13250,2,1.12,-0.0684,0.495,inactive
m-cup (mann-cup),1,0.99,0.465,1.06,inactive
CG14258,1,0.754,-3.22,0.851,inactive
nis,1,-6.43,-3.3,-0.884,inactive
Semp1 (Seminal metalloprotease-1),1,0.117,-1.87,0.226,inactive
CG9372,1,-2.25,-1.1,-0.108,inactive
CG15731,1,0.195,-0.279,-0.227,inactive
CG15731,2,-0.142,-1.36,0.681,inactive
CG15731,3,-0.358,-0.15,0.188,inactive
Or59c (Odorant receptor 59c),1,-2.43,-4.83,0.251,inactive
porin,1,0.475,0.441,-1.25,inactive
porin,2,0.426,0.478,-0.704,inactive
brv3 (brivido-3),1,1.39,-0.618,1.01,inactive
brv3 (brivido-3),2,0.468,1.38,-0.489,inactive
CG3434,1,-6.82,-0.688,0.0582,inactive

Records listed so far whose gene name starts with B or b:
target,reagent,"Wolbachia per cell robust z, rep 1","Wolbachia per cell robust z, rep 2","Wolbachia per cell robust z, rep 3",Call
brv3 (brivido-3),1,1.39,-0.618,1.01,inactive
brv3 (brivido-3),2,0.468,1.38,-0.489,inactive
